B1: mAb14285 (antibody, V domains shown)
VH: QVQLVQSGAEVKKPGASVKVSCKASGYTFTGYFIHWVRQAPGQGLEWMGWISPISGGTNYAQKFQGRVTVTRDTSITTAYMELSRLTSDDTAVYHCAREGGTWKGDFDYWGQGTLVTVSS
VL: QSALTQPASVSGSPGQSITISCTGTSSDVESYNLVSWYQQHPGKAPKLMIYEGSKRPSGVSNRFSGSKSGNTASLTISGLQAEDEADYYCSSYAGSSTWVFGGGTKLTVLG
B2: mAb15164 (antibody, V domains shown)
VH: EVQLVESGGGLVQPGGSLRLSCAASGFAVSSNYMTWVRQAPGKGLEWVATIYSGDSTYYADSVKGRFTISRHNSKNTLSLQMNSLRADDTAIYYCARLSGVLSGTYNGAFDIWGQGTMVTVSS
VL: QSALTQPASVSGSPGQSITISCTGTSSDFGNYNIVSWYQQHPGQAPKVMIYEGNKRPSGVSNRFSGSKSGHTASLTISGLQAEDEADYYCSSYAGSSTWVFGGGTKLTVLG
B3: mAb15166 (antibody, V domains shown)
VH: EVQLVESGGGLVQPGGSLRLSCAASGFTVTSNYMSWVRQAPGKGLEWVSAIYSGESTYYADSVKGRFTISRDSSKNTLYLQMNSLRVEDTAVYYCASIHDYSNYVGGFDPWGQGTLVTVSS
VL: QSALTQPASVSGSPGQSITISCTGPSSDFGSYNLVSWYQQHPGKAPKLMIYEGTKRPSGVSNRFSGSKSGNTASLTISGLQAEDEADYYCSSYAGSSTWVFGGGTKLTVLG
B4: mAb15165 (antibody, V domains shown)
VH: EVQLVESGGGLVQPGGSLRLSCAASGFTVSSNYMSWVRQAPGKGLEWVSAIYSGDSTYYADSVKGRFTISKDNSKNTLYLQMNSLRGEDTAVYYCARLGGALQAYDGAFDYWGQGTLATVSS
VL: QSALTQPASVSGSPGQSITISCTGTSSDFGSYNLVSWYQQHPGKAPKLMIYEGNKRPSGVSIRFSGSKSGNTASLTISGLQAEDEADYYCSSYAGSSTWVFGGGTKLTVLG
B5: mAb15157 (antibody, V domains shown)
VH: EVQLVESGGALVQPGGSLRLSCAASGFPFTIYAMTWVRQAPGKGLEWVSVITGSGDSTYYADSVKGRFTISRDNSKNTLYLQMNSLRAEDTAVYYCVKTGEGFFYYYYGMDVWGQGTTVTVSS
VL: QSVLTQPPSVSAAPGQKVTISCSGSSSNIGNSYISWYQQLPGTAPKLLIYVNNKRPSGIPDRFSGSKSGTSATLGITGLQTGDEADYYCGTWDSSLSAGVFGSGTKVTVLG
B6: mAb15162 (antibody, V domains shown)
VH: EVQLVETGGGLIQPGGSLRLSCAASEFIVSRNYMSWVRQAPGKGLEWVSLIYSGGSTYYADSVKGRFTISRDNSKNILYLQMNSLRAEDTAVYYCARDRGGISDYWGQGTLVTVSS
VL: DIQMTQSPSSLSASVGDRVTITCQASQDINKYLNWFQQKPGKAPKLLIYDASNLETGVPSRFSGSGSGTDFTFTISSLQPEDIATYYCQQYDNLPRTFGQGTKLEIKR
B7: mAb15158 (antibody, V domains shown)
VH: EVQLVESGGGLVQPGGSLRLSCAASGFSFSSNWMSWVRQAPGKGLEWVGNINQDGSEKYYVDSVEGRFTISRDNAKKSLYLQMNSLRAEDTAVYYCARDLGVLWFGDFVDWGQGALVTVSS
VL: DIQMTQSPSSLSASVGDRVTITCRASQAISNSLAWYQQKPGKAPKLLLYAASTLESGVPSRFSGSGSGTDYTLTISSLQPEDFATYYCLQYYGSPRTFGQGTKVEIKR
B8: mAb15156 (antibody, V domains shown)
VH: QLQLQESGPGLVKSSETLSLTCTVSASITGSTYYWGWIRQPPGKGLEWIGSIYYSGTTYYKASLKSRVTISVDTSKNQFSLKLTSVTVADTAVYYCVSHLLGNYHKYGMDVWGQGTTVTVSS
VL: QSVLTQPPSASGTPGQRVTISCSGSRSNIGINTVNWYQQFPGTALNLLIFSDNQRPSGVPDRFSGSKSGTSASLAISGLQSEDEADYYCAAWDDSLNGPDWVFGGGTKLTVLG
B9: mAb14232 (antibody, V domains shown)
VH: QITLKESGPTLVKPTQTLTLTCTFSGFSLSASGVGVGWIRQPPGKALEWLALIYWDDDKRYSPSLKSRLTITKDTSKNQVVLTMTNMDPVDTATYYCAQHKVATIFDYWGQGTLVTVSS
VL: QSALTQPPSASGSPGQSVTISCTATSSDVGNYNYVSWYQQHPGKAPKLMIYEVTKRPSGVPDRFSGSKSGNTASLTVSGLQAEDEADYYCSSYAGSWGVFGGGTKLTVLG
B10: mAb14292 (antibody, V domains shown)
VH: EVQLVESGGGLVQPGGSLRLSCVASGFAFSTYEMNWVRQAPGKGLEWVSYISSSGSTIYYADSVKGRLTISRDNVKNSLYLQMNSLRVEDTAIYYCARDAIRNNDILTDPATFDPWGQGTLVTVSS
VL: not shown
B11: mAb15151 (antibody, V domains shown)
VH: QVQLVESGGGVVQPGRSLRLSCAASGFVFNSYGMHWVRQAPGKGLEWVAVLWYEGSKNYYADSVKGRFTISRDNSKNTLYLQMNSLRAEDTAVYYCARHGSGSFFGYYLDYWGQGTLVTVSS
VL: DIQMTQSPSSLSASVGDRVTITCRASHNINDFLNWYQQKPGKAPRLLIYAASSLQSGVPSRFSGSGSGTDFTLTISSLQPEDFATYYCQESYTTPPTFGQGTKLEIKR
B12: mAb15160 (antibody, V domains shown)
VH: EVQLVESGGGLVQPGGSLRLSCSASGFTFSRYAMYWVRQAPGKGLEYVSAISSDGGSTYDADSVKGRFTISRANSKNTLYLQMSSLRAEDTAVYYCVKGLRELLYYYYGMDVWGQGTTVTVSS
VL: DIQMTQSPSSLSASVGDRVTITCRAGQSISSFLNWYQQKPGKAPKLLIYAASSLQSGVPSRFSGSGSGTDFTLTISSLQPEDFATYYCQQSYITPFTFGPGTKVDIKR
B13: mAb15161 (antibody, V domains shown)
VH: EVQLVESGGGLVQPGGSLRLSCAASGFTFSSYEMNWVRQAPGKGLEWVSYISSSGSILYYADSVKGRFTASRDNAKNSLYLQMNSLRAEDTGVYYCARREYQLLRPFEFWGQGTLVTVSS
VL: not shown
B14: mAb15150 (antibody, V domains shown)
VH: EVQLVETGGGLIQPGGSLRLSCAAPGFIVSSNYMSWVRQAPGKGLEWVSLLYPGGSTYYADSVKGRFTISRDNSKNTLYLQMNSLRADDTAVYYCARVLPIVEDHFDYWGQGTLVTVSS
VL: DIQLTQSPSFLSASVGDRVTITCRASQGMSSYLAWYQKKPGKAPKLLIYGATILQSGVPSRFSGSGSGTEFTLTISSLQPEDFATYYCQQLNSDPLYMYTFGQGTKLEIKR
B15: mAb14234 (antibody, V domains shown)
VH: QVQLVESGGGVVQPGRSLRLSCAASGFTFSSYGIHWVRQAPGKGLEWVAIIWYDGSEKYYADSVKGRFTISRDNSKNTLFLQMNSLEAEDTAVYYCARGPDLLTGYYNYFYYGMDVWGQGTTVTVSS
VL: QSVLTQPPSVSGAPGQRVTISCTGSSSNIGIGYDVHWYQQLPGTVPKLLIYGNTNRPSGVPDRFSGSKSGTSASLAITGLQAEDEADYYCQSYDSSLSSYVFGTGTKVTVLG
B16: mAb14280 (antibody, V domains shown)
VH: QVQLVQSGAEVKKPGASVRVSCKASGYTFTGNYIHWVRQAPGQGLEWMAWINPNSGGKNYAQKFQGRVTLTRDTSVNTAYMELSRLRSDDTAMYYCARDVNYNILTGPGGLWGQGTLVTVSS
VL: QSALTQPPSASGSPGQSVTISCTGTSSDVGGYNFVSWYQQHPGKAPKLMIYEVSKRPSGVPDRFSGSKSGNTASLTVSGLQAEDEADYYCSSYAGSNNFVFGTGTKVTVLG
B17: mAb15163 (antibody, V domains shown)
VH: EVQLVETGGGLIQPGESLRLSCAASGFIVSTNYMNWVRQAPGKGLEWVSVIYRGGSTYYADSVKGRFTISRDNSKNTLFLQMNSLRAEDTAVYYCARGHEDFDYDTPASGAFDIWGQGTMVTVSS
VL: QSALTQPPSASGSPGQSVTISCTGTSSDVGGHNYVSWYQQHPGKAPKVMIYEVSKRPSGVPDRFSGSKSGNTASLTVSGLQAEDEADYYCSSYAGSNKFVFGTGTKVTVLG
B18: mAb15159 (antibody, V domains shown)
VH: EVQLVESGGGLVQPGGSLRLSCAASGITVSSNYMTWVRQAPGKGLEWVSLIYSGGSTFYADSVRGRFTISRDNSKNTLYLQMNSLRAEDTAVYYCARDLVVYGMDVWGQGTTVTVSS
VL: DIQLTQSPSSLSASVGDRVTITCRASQGISSYLAWYQQKPGKAPKLLIYAASTLQSGVPSRFSGSGSGTDFTLTISSLQPEDFATYYCQHLNSDPHTFGQGTKLEIKR
B19: mAb15170 (antibody, V domains shown)
VH: EVQLVESGGGLVQPGGSLRLSCAATGITVSSNYMSWVRQAPGKGLEWVSLIYSGGSTFYADSVKGRFTISRHNSKNTLYLQMSSLRAEDTAVYYCARDLVDFGMDVWGQGTTVTVSS
VL: DIQLTQSPSSLSASVGDRVTITCRASQGISNYLAWYQQKPGKAPKLLIYAASTLQSGVPSRFSGSGSGTDFTLTISSLQPEDFGTYYCQQLNSDSPTFGQGTKVEIKR
B20: mAb14312 (antibody, V domains shown)
VH: EVQLVESGGGLVQPGGSLRLSCAASGFTVSRSYMTWVRQAPGKGLEWVSVIFTGGRTDHADSVKGRFTISRHNSKNTLYLQMNSLRTEDTAVYYCARVAIVGATGAFDIWGQGTMVTVSS
VL: QSVLTQPPSVSGAPGQRVTISCTGSSSNIGAGDDVHWYQQLPGTAPKLLIYGNSNRPSGVPDRFSGSKSGTSASLAITGLQAEDEADYYCQSYDSSLSGSVVFGGGTKLTVLG

Experiments:
[1] = biological target: T1, SARS-CoV2 Spike ecto foldon Trimer expressed with a C-terminal myc-myc-hexahistidine (SARS-CoV-2, UniProt P0DTC2 14-1213); test: SPR Biacore, mAb captured by anti-hFc, 37C
T1 construct: extracellular domain

[2] = biological target: T1, SARS-CoV2 Spike ecto foldon Trimer …; test: SPR Biacore, mAb captured by anti-hFc, 25C

Binder	Spike trimer.their bound at 50 nM [1] [RU]	Spike trimer.their bound at 50 nM [2] [RU]
B1	647	486
B2	379	107
B3	283	87
B4	319	104
B5	298	42.5
B6	206	115
B7	224	55.1
B8	474	205
B9	120	72.8
B10	237	138
B11	373	145
B12	302	55.8
B13	282	127
B14	247	87.6
B15	474	366
B16	650	459
B17	324	97.6
B18	196	147
B19	221	48.4
B20	500	393
